The term MIC denotes the smallest concentration in the dilution series that meets the test's criterion for growth inhibition. Lower therefore signals a more susceptible organism.

Structures are written as SMILES. ≈ marks a conversion by molar mass, not a printed value.

For this test, the system named is Burkholderia pseudomallei. Kind of test: Antimicrobial activity against Burkholderia pseudomallei 1026b after 24 hrs by broth microdilution method. Format: functional. A general note: Broth dilution looks for growth in wells or tubes with falling amounts of substance.
In turn, `CN(C)[C@@H]1C(O)=C(C(N)=O)C(=O)[C@@]2(O)C(O)=C3C(=O)c4c(O)cccc4[C@@](C)(O)[C@H]3C[C@@H]12` had an MIC of 0.5 µg/mL (≈ 1.13 µM).
The compound `C[C@H]1c2cccc(O)c2C(=O)C2=C(O)[C@]3(O)C(=O)C(C(N)=O)=C(O)[C@@H](N(C)C)[C@@H]3[C@@H](O)[C@@H]21.O` displayed an MIC of 0.5 µg/mL.
Turning to `C[n+]1c2cc(N)ccc2cc2ccc(N)cc21.[Cl-]`, inhibition of growth (MIC) required 32 µg/mL.
`CCn1cc(C(=O)O)c(=O)c2cc(F)c(N3CCNCC3)cc21` showed an MIC of 4 µg/mL (≈ 12.5 µM).
For `CC(C)(O/N=C(\C(=O)N[C@@H]1C(=O)N2C(C(=O)[O-])=C(C[n+]3ccccc3)CS[C@H]12)c1csc(N)n1)C(=O)O`, the MIC amounted to 4 µg/mL (≈ 7.32 µM).

The record behind these values is ChEMBL document CHEMBL1275254 (2010).
